Measured values from several laboratories, pooled; numbers as filed in NIAID ChemDB.

Common to all: whole-cell or culture tests; organism: Mycobacterium avium complex

Conditions beyond the fields shown may differ between rows. a–b is a range or a potency band. An empty or dashed field is not shown. Inhibition is in % at the dose shown (toxicity tests: loss of growth or viability).

compound,method,tested at,strain,cells,read-out,result
CC[C@H]1OC(=O)[C@H](C)[C@@H](OC(=O)CCCc2ccccc2)[C@H](C)[C@@H](O[C@@H]2O[C@H](C)C[C@H](N(C)C)[C@H]2O)C(C)(O)C[C@@H](C)/C(=N\OCCCOc2ccccc2)[C@H](C)[C@@H](O)[C@]1(C)O,,,20039 (clarithromycin-susceptible),,MIC,6.25 µg/mL
CCc1cc(C(N)=S)ccn1,agar,5 µg/mL,56 strains,,inhibition,68%
CCCNNC(=O)O[C@H]1[C@H](O[C@@H]2[C@@H](C)[C@H](O[C@H]3C[C@@](C)(OC)[C@@H](OC(C)=O)[C@H](C)O3)[C@@H](C)C(=O)O[C@H](CC)[C@@](C)(O)[C@H](O)[C@@H](C)/C(=N/OCCCC3CCCCC3)[C@H](C)CC2(C)O)O[C@H](C)C[C@@H]1N(C)C,,,20096 (clarithromycin-resistant),,MIC,0.78 µg/mL
CN[C@@H]1[C@H](O[C@H]2[C@H](O[C@H]3[C@H](O)[C@@H](O)[C@H](N=C(N)N)[C@@H](O)[C@@H]3N=C(N)N)O[C@@H](C)[C@]2(O)C=O)O[C@@H](CO)[C@H](O)[C@H]1O,,,N-962 (HIV+),,MIC,4 µg/mL
CC1(C)N=C(N)N=C(N)N1OCCCOc1cc(Cl)c(Cl)cc1Cl,,,101,,MIC,≤0.5 µg/mL
CC[C@H]1OC(=O)[C@H](C)[C@@H](OC(=O)Cc2ccccc2)[C@H](C)[C@@H](O[C@@H]2O[C@H](C)C[C@H](N(C)C)[C@H]2O)C(C)(O)C[C@@H](C)/C(=N\OCCCOc2ccccc2)[C@H](C)[C@@H](O)[C@]1(C)O,,,20039 (clarithromycin-susceptible),,MIC,3.13 µg/mL
CC1(C)N=C(N)N=C(N)N1OCCCOc1cc(Cl)c(Cl)cc1Cl,,,DW7,,MIC,0.5 µg/mL
CCc1nc(N)nc(N)c1-c1ccc(Cl)cc1,,,DW17,,MIC,32 µg/mL
NNC(=O)c1ccncc1,,,13034,,MIC,0.8–2.5 µg/mL
CO[C@H]1/C=C/O[C@@]2(C)Oc3c(C)c(O)c4c(=O)c(c5oc6cc(N7CCN(CC(C)C)CC7)cc(=O)c6nc5c4c3=C2O)NC(=O)/C(C)=C\C=C\[C@H](C)[C@H](O)[C@@H](C)[C@@H](O)[C@@H](C)[C@H](OC(C)=O)[C@@H]1C,,,N-238 (HIV-),,MIC,0.05 µg/mL
C[C@@H]1CN(c2c(F)c(N)c3c(=O)c(C(=O)O)cn(C4CC4)c3c2F)C[C@H](C)N1,,,Isolate 90-0827,,MIC,0.5 µg/mL
N[C@@H]1CONC1=O,agar,30 µg/mL,97 strains,,inhibition,40%
CC[C@H]1OC(=O)[C@H](C)[C@@H](O)[C@H](C)[C@@H](O[C@@H]2O[C@H](C)C[C@H](N(C)C)[C@H]2O)C(C)(O)C[C@@H](C)/C(=N\OCCCOc2ccccc2)[C@H](C)[C@@H](O)[C@]1(C)O,,,20039 (clarithromycin-susceptible),,MIC,>50 µg/mL
CO[C@H]1/C=C/O[C@@]2(C)Oc3c(C)c(O)c4c(O)c(c5c(c4c3C2=O)NC2(CCN(CC(C)C)CC2)N=5)=NC(=O)/C(C)=C\C=C\[C@H](C)[C@H](O)[C@@H](C)[C@@H](O)[C@@H](C)[C@H](OC(C)=O)[C@@H]1C,,,N-314 (HIV-),,MIC,0.5 µg/mL
N[C@@H]1CN(c2c(F)cc3c(=O)c(C(=O)O)cn([C@@H]4C[C@@H]4F)c3c2Cl)CC12CC2,,10 µg/mL,101,Macrophages,inhibition,100%
CC[C@H]1OC(=O)[C@H](C)[C@@H](O[C@H]2C[C@@](C)(OC)[C@@H](OC(C)=O)[C@H](C)O2)[C@H](C)[C@@H](O[C@@H]2O[C@H](C)C[C@H](N(C)C)[C@H]2OC(=O)NN(C)Cc2ccccc2)C(C)(O)C[C@@H](C)/C(=N\OCCCC2CCCCC2)[C@H](C)[C@@H](O)[C@]1(C)O,,,20039 (clarithromycin-susceptible),,MIC,3.13 µg/mL

The last 2 rows once more:

compound | method | tested at | strain | cells | read-out | result
N[C@@H]1CN(c2c(F)cc3c(=O)c(C(=O)O)cn([C@@H]4C[C@@H]4F)c3c2Cl)CC12CC2 |  | 10 µg/mL | 101 | Macrophages | inhibition | 100%
CC[C@H]1OC(=O)[C@H](C)[C@@H](O[C@H]2C[C@@](C)(OC)[C@@H](OC(C)=O)[C@H](C)O2)[C@H](C)[C@@H](O[C@@H]2O[C@H](C)C[C@H](N(C)C)[C@H]2OC(=O)NN(C)Cc2ccccc2)C(C)(O)C[C@@H](C)/C(=N\OCCCC2CCCCC2)[C@H](C)[C@@H](O)[C@]1(C)O |  |  | 20039 (clarithromycin-susceptible) |  | MIC | 3.13 µg/mL